How the values were obtained:
Details in all cases: read-out: IC50 of ZJS-178 [μM]*
myosin I (FgMyoI) [1] = target: myosin I (FgMyoI) (Fusarium graminearum, UniProt I1RCT2); experiment: actin-activated ATPase assay with protein purified from Sf9 cells, […] actin
myosin I (FgMyoI) [2] = target: myosin I (FgMyoI) (Fusarium graminearum, UniProt I1RCT2, M375A)
myosin I (FgMyoI) [3] = target: myosin I (FgMyoI) (Fusarium graminearum, UniProt I1RCT2, S217A)

The chains behind the UniProt entries cited, without tags or fusion partners. Residues count along the entry.
UniProt I1RCT2, 1-1214: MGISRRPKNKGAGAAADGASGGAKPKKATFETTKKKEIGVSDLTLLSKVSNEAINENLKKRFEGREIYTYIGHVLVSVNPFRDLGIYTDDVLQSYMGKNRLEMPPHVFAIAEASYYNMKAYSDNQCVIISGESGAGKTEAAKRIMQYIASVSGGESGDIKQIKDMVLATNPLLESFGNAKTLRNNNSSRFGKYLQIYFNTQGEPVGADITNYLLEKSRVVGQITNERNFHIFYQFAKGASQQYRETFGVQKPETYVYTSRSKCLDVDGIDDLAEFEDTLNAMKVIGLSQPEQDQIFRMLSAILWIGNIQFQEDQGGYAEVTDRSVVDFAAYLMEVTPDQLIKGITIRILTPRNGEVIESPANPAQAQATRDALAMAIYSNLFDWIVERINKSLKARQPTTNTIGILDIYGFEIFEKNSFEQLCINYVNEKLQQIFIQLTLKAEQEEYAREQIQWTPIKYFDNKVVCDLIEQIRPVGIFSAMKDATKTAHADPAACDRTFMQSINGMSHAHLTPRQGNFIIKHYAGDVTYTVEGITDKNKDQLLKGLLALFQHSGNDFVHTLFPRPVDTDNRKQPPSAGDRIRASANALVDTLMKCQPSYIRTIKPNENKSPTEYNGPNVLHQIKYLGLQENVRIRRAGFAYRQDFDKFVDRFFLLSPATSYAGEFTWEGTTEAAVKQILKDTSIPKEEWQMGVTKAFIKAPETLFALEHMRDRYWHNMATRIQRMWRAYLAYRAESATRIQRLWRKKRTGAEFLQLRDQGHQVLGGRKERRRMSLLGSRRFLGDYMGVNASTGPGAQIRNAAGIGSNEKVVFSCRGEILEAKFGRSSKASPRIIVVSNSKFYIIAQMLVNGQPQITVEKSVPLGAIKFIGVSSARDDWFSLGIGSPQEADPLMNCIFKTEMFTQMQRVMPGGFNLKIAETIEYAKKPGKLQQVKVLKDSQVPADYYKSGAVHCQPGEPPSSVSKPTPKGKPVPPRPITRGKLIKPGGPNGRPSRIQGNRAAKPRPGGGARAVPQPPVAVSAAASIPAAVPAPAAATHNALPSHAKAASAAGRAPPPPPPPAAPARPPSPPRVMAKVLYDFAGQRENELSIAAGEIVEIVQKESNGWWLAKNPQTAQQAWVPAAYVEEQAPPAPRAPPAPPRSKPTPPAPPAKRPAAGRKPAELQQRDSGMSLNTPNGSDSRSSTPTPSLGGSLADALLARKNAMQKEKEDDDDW
UniProt I1RCT2, 1-757 limits assumed: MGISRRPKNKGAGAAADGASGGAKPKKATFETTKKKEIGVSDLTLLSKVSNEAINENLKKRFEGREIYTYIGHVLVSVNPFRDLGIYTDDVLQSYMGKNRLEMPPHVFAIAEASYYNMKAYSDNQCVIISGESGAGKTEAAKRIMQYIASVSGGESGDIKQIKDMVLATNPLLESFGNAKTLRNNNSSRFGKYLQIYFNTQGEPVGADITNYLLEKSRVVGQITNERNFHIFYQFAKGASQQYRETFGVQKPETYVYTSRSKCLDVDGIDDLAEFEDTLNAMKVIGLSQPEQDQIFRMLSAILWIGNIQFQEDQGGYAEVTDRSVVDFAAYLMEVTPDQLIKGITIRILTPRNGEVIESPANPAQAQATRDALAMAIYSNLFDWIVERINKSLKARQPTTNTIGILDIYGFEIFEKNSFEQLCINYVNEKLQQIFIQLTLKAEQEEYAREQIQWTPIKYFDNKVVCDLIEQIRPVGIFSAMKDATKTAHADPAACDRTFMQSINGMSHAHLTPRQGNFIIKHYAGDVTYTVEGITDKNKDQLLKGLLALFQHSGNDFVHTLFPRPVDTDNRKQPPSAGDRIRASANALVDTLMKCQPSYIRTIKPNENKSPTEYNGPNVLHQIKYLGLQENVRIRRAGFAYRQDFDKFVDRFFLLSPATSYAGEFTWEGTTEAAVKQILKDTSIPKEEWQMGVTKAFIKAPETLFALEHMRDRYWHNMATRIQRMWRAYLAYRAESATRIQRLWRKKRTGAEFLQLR

With `CCOC(=O)/C(C#N)=C(\N)c1ccc(N(C)CC)cc1` the IC50 (myosin I (FgMyoI) [1]) was 0.035 µM, the IC50 (myosin I (FgMyoI) [2]) was 0.0428 µM and the IC50 (myosin I (FgMyoI) [3]) was 0.19 µM.

— PMC12825925, “A novel highly antifungal compound ZJS-178 targeting myosin I inhibits the endocytosis and mycotoxin biosynthesis of Fusarium graminearum” (2024)
